PubChem BioAssay AID624099 – ICCB-Longwood – 2012

Assay: 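Human genes that papillomavirus E2 requires to repress the HPV18 LCR promoter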 (primary screen)
System: human C33A cervical carcinoma cells (HPV-negative) stably expressing BPV1 E2 and an HPV18 LCR luciferase reporter
Knock-down reagent: siRNA pool against human genes, 40 nM
Timing: 72 h
Detection: 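Per-well luciferase luminescence, z-scored on each plate against the plate mean and SD with control wells left out, then averaged across three replicate plates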
Scale: mean z-score and z-score: higher = stronger reporter signal, weaker E2 silencing
Hit rule: 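Hit if mean z-score reaches 2 and two or more of three replicate z-scores also reach 2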
Here is an unselected part of about 21,000 deposited reagents. 497 of them (2.4%) count as active. 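Higher z means weaker E2 silencing; only reporter increases were scored, and knock-downs that hurt cell survival may mask genuine repressor factors.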 No sequences are given here.

| gene symbol | PubChem SID | mean z-score | z-score, replicate A | z-score, replicate B | z-score, replicate C | activity call |
| --- | --- | --- | --- | --- | --- | --- |
| RAPGEF4 (Rap guanine nucleotide exchange factor 4) | SID56479228 | -0.14 | 0.2 | -0.11 | -0.5 | inactive |
| NPY2R (neuropeptide Y receptor Y2) | SID134311112 | 0.86 | 0.92 | 0.72 | 0.92 | inactive |
| IQCF3 (IQ motif containing F3) | SID134327329 | -0.19 | -0.27 | -0.46 | 0.17 | inactive |
| LOC389438 (retired record) | SID134327663 | -0.97 | -0.81 | -1.02 | -1.06 | inactive |
| SMIM13 (small integral membrane protein 13) | SID134327676 | 0.98 | 0.71 | 1.25 | 0.99 | inactive |
| YIPF6 (Yip1 domain family member 6) | SID134321938 | 0.36 | 0.19 | 0.04 | 0.85 | inactive |
| ST3GAL6 (ST3 beta-galactoside alpha-2,3-sialyltransferase 6) | SID134321906 | 0.82 | 0.57 | 0.9 | 0.98 | inactive |
| NKG7 (natural killer cell granule protein 7) | SID134320059 | 0.18 | -0.07 | 0.21 | 0.39 | inactive |
| ARB2A (ARB2 cotranscriptional regulator A) | SID134320803 | 0.07 | -0.2 | 0.16 | 0.25 | inactive |
| PLPP3 (phospholipid phosphatase 3) | SID134321253 | 1.47 | 1.66 | 1.31 | 1.44 | inactive |
| IFT81 (intraflagellar transport 81) | SID134318842 | -1.31 | -1.29 | -1.34 | -1.29 | inactive |
| FLRT3 (fibronectin leucine rich transmembrane protein 3) | SID134314732 | -0.28 | -0.22 | -0.31 | -0.29 | inactive |
| SRR (serine racemase) | SID134313642 | 1.68 | 1.55 | 1.67 | 1.81 | inactive |
| STRADA (STE20 related adaptor alpha) | SID56479021 | -0.81 | -0.71 | -0.86 | -0.86 | inactive |
| LOC389100 (retired record) | SID134327315 | -2.79 | -2.85 | -2.93 | -2.58 | inactive |
| PTPN3 (protein tyrosine phosphatase non-receptor type 3) | SID134314126 | -0.32 | -0.47 | -0.3 | -0.2 | inactive |
| B4GALT7 (beta-1,4-galactosyltransferase 7) | SID134316662 | -0.88 | -0.68 | -0.87 | -1.08 | inactive |
| PLD5 (phospholipase D family member 5) | SID134314879 | -0.01 | -0.22 | -0.27 | 0.47 | inactive |
| KCNK9 (potassium two pore domain channel subfamily K member 9) | SID134310657 | -0.87 | -0.89 | -0.57 | -1.14 | inactive |
| IFTAP (intraflagellar transport associated protein) | SID134320560 | 0.54 | 0.87 | 0.76 | -0.02 | inactive |
| LOC285770 (retired record) | SID134326176 | 1.63 | 1.53 | 1.76 | 1.6 | inactive |
| INTS5 (integrator complex subunit 5) | SID134326597 | 1.49 | 1.04 | 1.62 | 1.82 | inactive |
| NEXMIF (neurite extension and migration factor) | SID134326181 | 0.6 | 0.66 | 0.41 | 0.72 | inactive |
| BLOC1S2 (biogenesis of lysosomal organelles complex 1 subunit 2) | SID134322207 | 0.17 | 0.36 | 0.06 | 0.1 | inactive |
| ZNF385A (zinc finger protein 385A) | SID134318140 | 0.12 | -0.14 | 0.22 | 0.26 | inactive |
| LOC200292 (retired record) | SID134326052 | -1.83 | -1.81 | -1.59 | -2.09 | inactive |
| GLRA2 (glycine receptor alpha 2) | SID134311600 | -0.02 | -0.07 | 0.05 | -0.04 | inactive |
| OR1G1 (olfactory receptor family 1 subfamily G member 1) | SID134313904 | 0.37 | 0.44 | 0.48 | 0.2 | inactive |
| LPL (lipoprotein lipase) | SID134313811 | 0.98 | 1.25 | 0.84 | 0.84 | inactive |
| CADPS2 (calcium dependent secretion activator 2) | SID134321967 | 1.02 | 1.25 | 0.7 | 1.1 | inactive |
| COX6A1 (cytochrome c oxidase subunit 6A1) | SID134316153 | -0.71 | -0.45 | -0.65 | -1.04 | inactive |
| EIF2S1 (eukaryotic translation initiation factor 2 subunit alpha) | SID134319434 | -3.76 | -3.84 | -3.65 | -3.8 | inactive |
| KCNE2 | SID134313462 | 0.22 | 0.16 | 0.21 | 0.29 | inactive |

Limited to “z-score, replicate A” (4 entries from above):
FLRT3 (fibronectin leucine rich transmembrane protein 3) [SID134314732]	-0.22
SRR (serine racemase) [SID134313642]	1.55
STRADA (STE20 related adaptor alpha) [SID56479021]	-0.71
LOC389100 (retired record) [SID134327315]	-2.85

The list goes on.
| gene symbol | PubChem SID | mean z-score | z-score, replicate A | z-score, replicate B | z-score, replicate C | activity call |
| --- | --- | --- | --- | --- | --- | --- |
| SULF1 (sulfatase 1) | SID134311933 | 0.6 | 0.46 | 0.64 | 0.7 | inactive |
| LOC401204 (retired record) | SID134327538 | -0.42 | -0.52 | -0.52 | -0.22 | inactive |
| ESD (esterase D) | SID134313194 | 0.1 | 0.23 | 0.02 | 0.05 | inactive |
| SYTL4 (synaptotagmin like 4) | SID134312233 | -0.14 | -0.22 | -0.16 | -0.05 | inactive |
| GPR183 (G protein-coupled receptor 183) | SID134310929 | -0.37 | -0.51 | -0.51 | -0.09 | inactive |
| PRPF18 (pre-mRNA processing factor 18) | SID134315831 | 0.4 | 0.49 | 0.61 | 0.1 | inactive |
| NCK1 (NCK adaptor protein 1) | SID134311748 | 0.54 | 0.36 | 0.6 | 0.66 | inactive |
| RTN3P1 (reticulon 3 pseudogene 1) | SID134325933 | 0.37 | 0.29 | 0.36 | 0.47 | inactive |
| CBR1 (carbonyl reductase 1) | SID134310500 | -0.19 | -0.15 | -0.23 | -0.2 | inactive |
| LOC440683 (retired record) | SID134329757 | -1.55 | -1.88 | -1.18 | -1.58 | inactive |
| EBP (EBP cholestenol delta-isomerase) | SID134316564 | -0.72 | -0.78 | -0.65 | -0.73 | inactive |
| IKBIP (IKBKB interacting protein) | SID134320403 | 1.32 | 1.47 | 1.41 | 1.08 | inactive |
| LOC387643 (retired record) | SID134328218 | -0.54 | -0.79 | -0.63 | -0.2 | inactive |
| ENHO (energy homeostasis associated) | SID134329342 | 0.86 | 0.9 | 1.02 | 0.66 | inactive |
| PLK3 (polo like kinase 3) | SID56478615 | 0.07 | 0.22 | 0.08 | -0.07 | inactive |
| SIVA1 (SIVA1 apoptosis inducing factor) | SID134316545 | -1.16 | -1.21 | -1.18 | -1.1 | inactive |
| ERCC1 (ERCC excision repair 1, endonuclease non-catalytic subunit) | SID134311724 | 0.73 | 0.75 | 0.57 | 0.86 | inactive |
| BCAR4 (breast cancer anti-estrogen resistance 4) | SID134328636 | 0.53 | 0.32 | 1.03 | 0.23 | inactive |
| PANK3 (pantothenate kinase 3) | SID56479122 | -0.18 | -0.06 | -0.41 | -0.07 | inactive |
| USP50 (ubiquitin specific peptidase 50) | SID134329328 | -0.74 | -0.56 | -0.78 | -0.88 | inactive |
| KLF10 (KLF transcription factor 10) | SID134311887 | -0.34 | -0.37 | -0.36 | -0.3 | inactive |
| LOC392997 (retired record) | SID134327924 | -0.3 | 0.16 | -0.32 | -0.74 | inactive |
| SLC25A24 | SID134312373 | -0.63 | -0.84 | -0.72 | -0.34 | inactive |
| LOC388436 | SID134328828 | 1.21 | 1.01 | 1.35 | 1.28 | inactive |
